The results in this text go back to US20240269228A1 (priority 2021, published 2024).

The chains behind the UniProt entries cited, without tags or fusion partners. Residues count along the entry.
UniProt Q9GZZ6, 25-450 limits assumed: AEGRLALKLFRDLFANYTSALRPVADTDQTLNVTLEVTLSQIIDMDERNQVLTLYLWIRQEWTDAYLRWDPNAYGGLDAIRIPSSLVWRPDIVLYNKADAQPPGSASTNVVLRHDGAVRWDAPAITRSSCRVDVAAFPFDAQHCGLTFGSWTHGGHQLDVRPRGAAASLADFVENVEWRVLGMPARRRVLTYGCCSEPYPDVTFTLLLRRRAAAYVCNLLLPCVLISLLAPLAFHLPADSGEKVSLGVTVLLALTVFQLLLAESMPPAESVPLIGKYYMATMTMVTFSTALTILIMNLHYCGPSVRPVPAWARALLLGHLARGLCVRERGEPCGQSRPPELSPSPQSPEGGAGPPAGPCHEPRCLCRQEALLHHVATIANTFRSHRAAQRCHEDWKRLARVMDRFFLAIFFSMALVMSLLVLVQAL
UniProt Q9UGM1, 26-479 limits assumed: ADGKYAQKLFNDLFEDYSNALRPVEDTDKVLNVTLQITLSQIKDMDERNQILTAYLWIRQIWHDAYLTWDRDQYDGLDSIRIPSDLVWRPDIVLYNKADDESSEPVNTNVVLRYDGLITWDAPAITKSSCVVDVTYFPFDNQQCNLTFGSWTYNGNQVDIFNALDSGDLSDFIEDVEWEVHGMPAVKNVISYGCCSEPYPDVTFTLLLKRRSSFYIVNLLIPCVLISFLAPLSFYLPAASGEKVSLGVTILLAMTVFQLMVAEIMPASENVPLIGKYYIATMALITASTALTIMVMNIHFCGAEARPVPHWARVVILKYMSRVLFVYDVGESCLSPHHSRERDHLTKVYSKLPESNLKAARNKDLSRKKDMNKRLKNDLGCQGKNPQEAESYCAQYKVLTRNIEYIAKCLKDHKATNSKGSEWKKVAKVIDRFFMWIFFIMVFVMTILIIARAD

Some compounds may have been tested in ways that are not shown here.

The experiment deals with human α9α10 nAChR (Homo sapiens, UniProt Q9GZZ6+Q9UGM1). The experiment can be described thus: Two-electrode voltage clamp, Xenopus oocytes expressing the receptor. As to conditions: h α9α10.
Take `C[C@@H](O)[C@@H]1NC(=O)[C@H]2NC(=O)[C@@H](NC(=O)CN)CSSC[C@H](NC(=O)[C@H](CCCNC(=N)N)NC(=O)[C@@H]3CCCN3C(=O)[C@H](CC(=O)O)NC1=O)C(=O)N[C@@H](CCCNC(=N)N)C(=O)N[C@@H](Cc1ccc(O)c(I)c1)C(=O)N[C@@H](CCC(N)=O)C(=O)N[C@H](C(=O)N[C@H](CC(=O)N[C@@H](CCCN)C(=O)O)Cc1ccc(O)cc1)CSSC2(C)C`: the Hill slope values is listed as 0.82 ± 0.2.

Consider `C[C@@H](O)[C@@H]1NC(=O)[C@H]2NC(=O)[C@@H](NC(=O)CN)CSSC[C@H](NC(=O)[C@H](CCCNC(=N)N)NC(=O)[C@@H]3CCCN3C(=O)[C@H](CC(=O)O)NC1=O)C(=O)N[C@@H](CCCNC(=N)N)C(=O)N[C@@H](Cc1ccc(O)c(I)c1)C(=O)N[C@@H](CCC(N)=O)C(=O)N[C@H](C(=O)N[C@H](CC(=O)N[C@H](CCCNC(=N)N)C(=O)O)Cc1ccc(O)cc1)CSSC2(C)C`, for which the Hill slope values is reported as 0.83 ± 0.08.

In the case of `C[C@@H](O)[C@@H]1NC(=O)[C@H]2NC(=O)[C@@H](NC(=O)CN)CSSC[C@H](NC(=O)[C@H](CCCNC(=N)N)NC(=O)[C@@H]3CCCN3C(=O)[C@H](CC(=O)O)NC1=O)C(=O)N[C@@H](CCCNC(=N)N)C(=O)N[C@@H](Cc1ccc(O)c(I)c1)C(=O)N[C@@H](CCC(N)=O)C(=O)N[C@H](C(=O)N[C@H](CC(=O)N[C@@H](CCCCN)C(=O)O)Cc1ccc(O)cc1)CSSC2(C)C`, the Hill slope values stood at 0.81 ± 0.1.

In turn, `C[C@@H](O)[C@@H]1NC(=O)[C@H]2NC(=O)[C@@H](NC(=O)CN)CSSC[C@H](NC(=O)[C@H](CCCNC(=N)N)NC(=O)[C@@H]3CCCN3C(=O)[C@H](CC(=O)O)NC1=O)C(=O)N[C@@H](CCCNC(=N)N)C(=O)N[C@@H](Cc1ccc(O)c(I)c1)C(=O)N[C@@H](CCC(N)=O)C(=O)N[C@H](C(=O)N[C@@H](Cc1ccc(O)cc1)C(=O)N[C@@H](CCCNC(=N)N)C(=O)O)CSSC2(C)C` gave a Hill slope values of 1.1 ± 0.2.

`C[C@@H](O)[C@@H]1NC(=O)[C@H]2NC(=O)[C@@H](NC(=O)CN)CSSC[C@H](NC(=O)[C@H](CCCNC(=N)N)NC(=O)[C@@H]3CCCN3C(=O)[C@H](CC(=O)O)NC1=O)C(=O)N[C@@H](CCCNC(=N)N)C(=O)N[C@@H](Cc1ccc(O)c(I)c1)C(=O)N[C@@H](CCC(N)=O)C(=O)N[C@H](C(=O)N[C@H](CC(=O)N[C@@H](CCC(=O)O)C(=O)O)Cc1ccc(O)cc1)CSSC2(C)C` registered a Hill slope values of 0.82 ± 0.3.

As for `C[C@@H](O)[C@@H]1NC(=O)[C@@H]2CSSC[C@@H](C(=O)N[C@@H](Cc3ccc(O)cc3)C(=O)O)NC(=O)[C@H](CCC(N)=O)NC(=O)[C@H](Cc3ccc(O)c(I)c3)NC(=O)[C@H](CCCNC(N)=O)NC(=O)[C@H](CSSC(C)(C)[C@H](NC(=O)CN)C(=O)N2)NC(=O)[C@H](CCCNC(=N)N)NC(=O)[C@@H]2CCCN2C(=O)[C@H](CC(=O)O)NC1=O`, the Hill slope values was found to be 0.5 ± 0.1.
